# Potato spindle tuber viroid, stem 3: variant abundance in plants

The pool varies stem 3 of the PSTVd intermediate strain in the pattern GUGGUUCCGNANNCNN; wild type is GUGGUUCCGGAACCGC (upper and lower strand joined, each 5' to 3', the first 8 letters being the upper strand).

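Three N. benthamiana plants were inoculated with the whole mutant pool. Samples came from the inoculated region at 5 days, the leaf margin at 10 and upper systemic leaves at 12.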

Numbers give reads per thousand; 0 = not seen among the reads, higher = more abundant. Each value is the mean of three plants. "Pool" is the share in the plasmid pool used as inoculum, on the same scale. The inoculated region was read from the minus strand, the other sites from the plus strand.

| sequence | pool | inoculated region | leaf margin | systemic leaves |
|---|---|---|---|---|
| GUGGUUCCGAAGUCUC | 0.985 | 1.13 | 1.18 | 1.24 |
| GUGGUUCCGUAGGCUG | 0.831 | 0.229 | 0.0120 | 0 |
| GUGGUUCCGGAGACCC | 1.26 | 0.718 | 0.0120 | 0.0497 |
| GUGGGUCCGAAGCCGC | 0.0154 | 0 | 0 | 0 |
| GUGGUUCCGGAAACGG | 0.923 | 0.294 | 0.0576 | 0.00621 |
| GUGGUUCCGGAGGCGU | 0.939 | 0.711 | 0 | 0 |
| GUGGUUCCGGAUACUU | 0.816 | 0.331 | 0.0226 | 0 |
| GUGGUUCCGCAAACUC | 0.846 | 0.262 | 0.0120 | 0 |
| GUGGUUCCGUAAGCCG | 0.723 | 0.308 | 0.0106 | 0.0658 |
| GUGGUUCCGUAGACCC | 1.37 | 0.846 | 0.0212 | 0 |
| GUGGUUCCGAAGCCUG | 0.831 | 1.63 | 0.498 | 0 |
| GUGGUUCCGUACACGU | 1.63 | 0.450 | 0.0226 | 0.0559 |
| GUGGUUCCGUAGGCGG | 1.26 | 0.605 | 0.326 | 0.155 |
| GUGGUUCCGCACACAG | 0.708 | 0.336 | 0.0106 | 0 |
| GUGGUUCCGGAGCCAU | 0.846 | 0.891 | 0.497 | 0 |
| UUGGUUCCGAAGGCGC | 0.0154 | 0 | 0 | 0 |
| GUGGUUCCGGAGACUU | 0.862 | 0.728 | 0 | 0 |
| GUGGUUCCGAAGGCUA | 1.00 | 0.648 | 0.448 | 0 |
| GUGGUUCCGGAAACGC | 0.846 | 0.473 | 0.410 | 0.321 |
| GUGGUUCCGUAGGCAG | 0.831 | 0.737 | 0.0106 | 0 |
| GUGGUUCCGUAAUCUG | 0.769 | 0.308 | 0.0481 | 0 |
| GUGGUUCCGGAAGCAG | 0.754 | 0.251 | 0.0453 | 0 |
| GUGGUUCCGGAACCUU | 0.708 | 0.317 | 0 | 0 |
| GUGGUUCCGUAUACAC | 0.923 | 0.303 | 0 | 0 |
| GUGGUUCCGUACUCUA | 0.954 | 0.570 | 0 | 0.0124 |
| GUGGUUCCGUAUUCAA | 0.693 | 0.968 | 0.156 | 0 |
| GUGGUUCCGCAGACCC | 0.754 | 0.336 | 0 | 0 |
| GUGGUUCCGGACACUG | 1.08 | 0.302 | 0.0106 | 0 |
| GUGGUUCCGCAGUCAC | 0.816 | 0.670 | 0 | 0 |
| GUGGUUCCGCAACCCA | 1.02 | 0.320 | 0.0120 | 0 |
| GUGGUUCCGGACUCCU | 0.893 | 1.19 | 0 | 0.00811 |
| GUGGUUCCGCAUUCUC | 1.06 | 0.347 | 0 | 0 |
| GUGGUUCCGAACCCUA | 0.939 | 0.333 | 0 | 0 |
| GUGGUUCCGAAAUCAA | 0.831 | 0.760 | 0.0120 | 0 |
| GUGGUUCCGGAUGCAC | 1.22 | 0.444 | 0.0106 | 0 |
| GUGGUUCCGUAUUCCU | 0.877 | 0.808 | 0 | 0.0184 |
| GUGGUUCCGGAAGCCC | 0.600 | 0.350 | 0.0307 | 0 |
| GUGGUUCCGAAACCUA | 0.739 | 0.718 | 0.177 | 0 |
| GUGGUUCCGCAGGCAG | 0.662 | 0.711 | 0.108 | 0 |
| GUGGUUCCGAAUCCUA | 0.785 | 0.330 | 0.0215 | 0 |
| GUGGUUCCGUAGGCAC | 0.954 | 0.848 | 0.0321 | 0 |
| GUGGUUCCGAAAGCAG | 0.831 | 0.888 | 0 | 0 |
| GUGGUUCCGAAAUCGU | 0.923 | 0.743 | 0.359 | 0 |
| GUGGUUCCGAAGUCAA | 1.12 | 0.928 | 0.950 | 1.06 |
| GUGGUUCCGCAAUCUC | 0.754 | 0.299 | 0.0120 | 0 |
| GUGGUUCCGGAAUGCG | 0.139 | 0.109 | 0 | 0 |
| GUGAUUCCGUACACGG | 0.0154 | 0 | 0 | 0 |
| GUGGUUCCUGUACCUC | 0.0154 | 0 | 0 | 0 |
| GUGGUUCCGCAAUCGC | 0.877 | 0.403 | 0.0106 | 0 |
| GUGGUUCCGAAGCCUU | 0.939 | 0.918 | 0.0200 | 0 |
| GUGGUUCCGUAAUCAU | 0.846 | 0.747 | 0.464 | 0 |
| GUGGUUCAGGAUGCAC | 0.0154 | 0 | 0 | 0 |
| GUGGUUCCGGAACCUG | 0.893 | 0.335 | 0.00944 | 0.0124 |
| GUGGUUCCGGUACCGC | 0.0616 | 0.184 | 0.212 | 0.330 |
| GUGGUUCCGGAAUCAA | 1.65 | 1.63 | 0 | 0.112 |
| GUGGUUCCGGACACUA | 1.57 | 0.744 | 0.129 | 0.0311 |
| GUGGUUCCGCACGCUU | 0.569 | 0.344 | 0 | 0 |
| GUGGUUCCGGAAGCCA | 0.862 | 0.357 | 0.0215 | 0 |
| GUGGUUCCGGAUACUA | 1.26 | 0.440 | 0 | 0.0497 |
| GUGGUUCCGGAAGCAA | 0.646 | 0.315 | 0.0106 | 0 |
| GUGGGUCCGUAGCCUA | 0.0154 | 0 | 0 | 0 |
| GUGGUUCCGUACUCUU | 1.26 | 0.833 | 0.0335 | 0.0184 |
| GUGGUUCCGUAAUCGC | 0.954 | 0.430 | 0 | 0 |
| GUGGUUCCGGACCCUG | 0.831 | 0.176 | 0.0120 | 0 |
| GUGGGUCCGGACUCUC | 0.0154 | 0 | 0.0120 | 0 |
| GUGGUUCCGCAAUCUA | 0.923 | 0.372 | 0.0106 | 0 |
| GUGGUUCCGUAACCCU | 0.893 | 0.277 | 0.0215 | 0 |
| GUGGUUCCGAAGACCU | 0.754 | 0.744 | 0.485 | 0 |
| GUGGUUCCGGAGUCUG | 0.723 | 0.781 | 0.275 | 0 |

Extract of 9 entries:

| sequence | pool | inoculated region | leaf margin | systemic leaves |
|---|---|---|---|---|
| GUGGUUCCGUAUUCAA | 0.693 | 0.968 | 0.156 | 0 |
| GUGGGUCCGAAGCCGC | 0.0154 | 0 | 0 | 0 |
| GUGGUUCCGUAGGCGG | 1.26 | 0.605 | 0.326 | 0.155 |
| GUGGUUCCGUAGGCAG | 0.831 | 0.737 | 0.0106 | 0 |
| GUGGUUCCGGAAACGC | 0.846 | 0.473 | 0.410 | 0.321 |
| GUGGUUCCGGAACCUU | 0.708 | 0.317 | 0 | 0 |
| GUGGUUCCGGAAGCCC | 0.600 | 0.350 | 0.0307 | 0 |
| GUGGUUCAGGAUGCAC | 0.0154 | 0 | 0 | 0 |
| GUGGUUCCGUAAGCCG | 0.723 | 0.308 | 0.0106 | 0.0658 |

Samples held 27,691 to 54,225 reads, so the smallest values rest on one or two reads. For reference, wild type rose from 17.3 per thousand in the pool to 330, 345, 235 (inoculated region), 794, 766, 816 (leaf margin) and 830, 792, 869 (systemic leaves). Sequences that differ at fixed positions probably stem from PCR or sequencing errors, and defective variants can be carried along by functional ones.

Values reported by Wu et al. 2024 (doi:10.1371/journal.ppat.1012142).